The values that follow come from article PMC11373652.

The series has as its system CC(=O)N[C@H]1[C@@H](OP(=O)(O)OP(=O)(O)OC[C@H]2O[C@@H](n3ccc(=O)[nH]c3=O)[C@H](O)[C@@H]2O)O[C@H](CO)[C@@H](O)[C@@H]1O. The experiment in a line: purified protein. To be noted: pH 7.5; 30.0 °C.

With “SdbA510–1050 (SdbA C-terminal domain) (Legionella pneumophila subsp. pneumophila str. Philadelphia 1)”, the Km is listed as 56.3 ± 12.7 µM.

What is called Km is the substrate concentration at which the rate is half of its maximum.
